Anti-infective test results gathered from many reports (values: NIAID ChemDB through PubChem).

Common to all: tests in culture; species: Mycobacterium avium complex

Lines come from different laboratories, so protocols vary.

structure	dose	strain or isolate	read by	cell line	read-out	result
Cc1ccn2c(C(=O)NCc3ccc4c(c3)CCO4)c(C)nc2c1		Clinical isolate 224	MTT		MIC	4 µg/mL
C[C@@H]1CN(c2c(F)c(N)c3c(=O)c(C(=O)O)cn(C4CC4)c3c2F)C[C@H](C)N1		ATCC 15769			MBC	1 µg/mL
CO[C@H]1/C=C/O[C@@]2(C)Oc3c(C)c(O)c4c(=O)c(c5oc6cc(N7CCN(CC(C)C)CC7)cc(=O)c6nc5c4c3=C2O)NC(=O)/C(C)=C\C=C\[C@H](C)[C@H](O)[C@@H](C)[C@@H](O)[C@@H](C)[C@H](OC(C)=O)[C@@H]1C		N-976 (HIV+)			MIC	0.0313 µg/mL
C[C@@H]1CN(c2c(F)c(N)c3c(=O)c(C(=O)O)cn(C4CC4)c3c2F)C[C@H](C)N1		25 isolates			MIC90	8 µg/mL
CCc1cc(C(N)=S)ccn1	5 µg/mL	713 strains	agar		inhibition	5%
CC(C)N=c1cc2n(-c3ccc(Cl)cc3)c3ccccc3nc-2cc1Nc1ccc(Cl)cc1		1625			MBC	2 µg/mL
CC[C@H]1OC(=O)[C@H](C)[C@@H](O[C@H]2C[C@@](C)(OC)[C@@H](OC(C)=O)[C@H](C)O2)[C@H](C)[C@@H](O[C@@H]2O[C@H](C)C[C@H](N(C)C)[C@H]2OC(=O)NNC)C(C)(O)C[C@@H](C)/C(=N\OCCCC2CCCCC2)[C@H](C)[C@@H](O)[C@]1(C)O		20039 (clarithromycin-susceptible)			MIC	3.13 µg/mL
Nc1ccc(S(=O)(=O)c2ccc(N)cc2)cc1		1408			MIC	64 µg/mL
CC[C@H]1OC(=O)[C@H](C)[C@@H](O[C@H]2C[C@@](C)(OC)[C@@H](O)[C@H](C)O2)[C@H](C)[C@@H](O[C@@H]2O[C@H](C)C[C@H](N(C)C)[C@H]2O)[C@](C)(OC)C[C@@H](C)C(=O)[C@H](C)[C@@H](O)[C@]1(C)O		25 isolates			MBC90	>8 µg/mL
CC[C@H]1OC(=O)[C@H](C)[C@@H](OC(=O)Cc2ccncc2)[C@H](C)[C@@H](O[C@@H]2O[C@H](C)C[C@H](N(C)C)[C@H]2O)C(C)(O)C[C@@H](C)/C(=N\OCCCOc2ccccc2)[C@H](C)[C@@H](O)[C@]1(C)O		20092 (clarithromycin-resistant)			MIC	25 µg/mL
CN[C@@H]1[C@H](O[C@H]2[C@H](O[C@H]3[C@H](O)[C@@H](O)[C@H](N=C(N)N)[C@@H](O)[C@@H]3N=C(N)N)O[C@@H](C)[C@]2(O)C=O)O[C@@H](CO)[C@H](O)[C@H]1O		N-259 (HIV-)			MIC	32 µg/mL
CC[C@H]1OC(=O)[C@H](C)[C@@H](O[C@H]2C[C@@](C)(OC)[C@@H](O)[C@H](C)O2)[C@H](C)[C@@H](O[C@@H]2O[C@H](C)C[C@H](N(C)C)[C@H]2O)[C@](C)(O)C[C@@H](C)CN(C)[C@H](C)[C@@H](O)[C@]1(C)O		25 isolates			MBC90	>8 µg/mL
CC1(C)N=C(N)N=C(N)N1OCCCOc1cc(Cl)c(Cl)cc1Cl		TDHOO5A			MIC	1 µg/mL
C[C@@H]1CN(c2c(F)c(N)c3c(=O)c(C(=O)O)cn(C4CC4)c3c2F)C[C@H](C)N1		N-251 (HIV-)			MIC	4 µg/mL
N[C@@H]1CONC1=O		14 strains	agar		EC50	<30 µg/mL
CO[C@H]1/C=C/O[C@@]2(C)Oc3c(C)c(O)c4c(O)c(c5c(c4c3C2=O)NC2(CCN(CC(C)C)CC2)N=5)=NC(=O)/C(C)=C\C=C\[C@H](C)[C@H](O)[C@@H](C)[C@@H](O)[C@@H](C)[C@H](OC(C)=O)[C@@H]1C		1408-2			MBC	16 µg/mL
CC[C@H]1OC(=O)[C@H](C)[C@@H](O[C@H]2C[C@@](C)(OC)[C@@H](OC(C)=O)[C@H](C)O2)[C@H](C)[C@@H](O[C@@H]2O[C@H](C)C[C@H](N(C)C)[C@H]2O)C(C)(O)C[C@@H](C)/C(=N\OCCCC2CCCCC2)[C@H](C)[C@@H](O)[C@]1(C)O		20096 (clarithromycin-resistant)			MIC	1.56 µg/mL
CC[C@H]1OC(=O)[C@H](C)[C@@H](O[C@H]2C[C@@](C)(OC)[C@@H](O)[C@H](C)O2)[C@H](C)[C@@H](O[C@@H]2O[C@H](C)C[C@H](N(C)C)[C@H]2O)[C@](C)(O)C[C@@H](C)C(=O)[C@H](C)[C@@H](O)[C@]1(C)O		25 isolates			MIC90	>8 µg/mL
CCN=c1cc2n(-c3ccc(Cl)cc3)c3ccccc3nc-2cc1Nc1ccc(Cl)cc1		453			MBC	64 µg/mL
CC[C@H]1OC(=O)[C@H](C)[C@@H](OC(=O)c2ccccc2)[C@H](C)[C@@H](O[C@@H]2O[C@H](C)C[C@H](N(C)C)[C@H]2O)C(C)(O)C[C@@H](C)/C(=N\OCCCOc2ccccc2)[C@H](C)[C@@H](O)[C@]1(C)O		20092 (clarithromycin-resistant)			MIC	6.25 µg/mL
CC1(C)N=C(N)N=C(N)N1OCCCOc1cc(Cl)c(Cl)cc1Cl		1928			MIC	2 µg/mL
Cc1ccc2nc(C)c(C(=O)NCc3ccc(C(F)(F)F)cc3)n2c1		Clinical isolate PRV	MTT		MIC	<0.03 µg/mL
CO[C@H]1/C=C/O[C@@]2(C)Oc3c(C)c(O)c4c(O)c(c5c(c4c3C2=O)NC2(CCN(CC(C)C)CC2)N=5)=NC(=O)/C(C)=C\C=C\[C@H](C)[C@H](O)[C@@H](C)[C@@H](O)[C@@H](C)[C@H](OC(C)=O)[C@@H]1C		N-945 (HIV+)			MIC	0.125 µg/mL
CCc1nc2ccc(Cl)cn2c1C(=O)NCc1ccc(N2CCC3(CC2)OC[C@H](C)O3)c(F)c1		Clinical isolate KAL	MTT		MIC	≤0.03 µg/mL
N[C@@H]1CN(c2c(F)cc3c(=O)c(C(=O)O)cn([C@@H]4C[C@@H]4F)c3c2Cl)CC12CC2	10 µg/mL	100		Macrophages	inhibition	100%
CC[C@H]1OC(=O)[C@H](C)[C@@H](O[C@H]2C[C@@](C)(OC)[C@@H](OC(C)=O)[C@H](C)O2)[C@H](C)[C@@H](O[C@@H]2O[C@H](C)C[C@H](N(C)C)[C@H]2O)C(C)(O)C[C@@H](C)/C(=N\OCCN(C)c2ccccc2)[C@H](C)[C@@H](O)[C@]1(C)O		20092 (clarithromycin-resistant)			MIC	25 µg/mL
CC1CN(c2cc3c(cc2F)c(=O)c(C(=O)O)cn3-c2ccc(F)cc2F)CCN1		25 isolates			MBC90	>8 µg/mL

Again, the opening 2 rows:

structure | dose | strain or isolate | read by | cell line | read-out | result
Cc1ccn2c(C(=O)NCc3ccc4c(c3)CCO4)c(C)nc2c1 |  | Clinical isolate 224 | MTT |  | MIC | 4 µg/mL
C[C@@H]1CN(c2c(F)c(N)c3c(=O)c(C(=O)O)cn(C4CC4)c3c2F)C[C@H](C)N1 |  | ATCC 15769 |  |  | MBC | 1 µg/mL

ECn is the concentration giving n% inhibition of infection, replication or growth. Percent inhibition refers to the dose given; in toxicity tests it is the harm to the cells. An empty or dashed field is not shown. MIC50, MIC90 and the like: level of inhibition, or share of isolates inhibited.